Compound potency records, mixed from different reports. Data source: NIAID ChemDB in PubChem.

All rows: growth or infection tests; agent: Cryptococcus neoformans

A number after MIC or MFC names an inhibition level or a share of isolates. Conditions beyond the fields shown may differ between rows. ECn is the concentration giving n% inhibition of infection, replication or growth. a–b is a range or a potency band. An empty or dashed field is not shown.

SMILES	read-out	strain or isolate	read by	value
CN(C/C=C/C#CC(C)(C)C)Cc1cccc2ccccc12	MIC50	-	-	0.25 µg/mL
COC(=O)Nc1nc2ccc(Sc3ccccc3)cc2[nH]1	EC50	ATCC 14116	-	<0.016 µg/mL
CC(C)(C)[C@](O)(COc1ccc(Cl)cc1)Cn1cncn1	MIC90	-	-	<0.01 µg/mL
Nc1[nH]c(=O)ncc1F	MIC50	-	-	1–4 µg/mL
C1CCC(C[C@@H]2CN3C(=NC[C@@H]3C3CCCCC3)N2CCC23CC4CC(CC(C4)C2)C3)CC1	EC50	ATCC 32045	-	2.1 µg/mL
CC(=O)OC1C=COC=C2CC34SSC5(CC6=COC=CC(OC(C)=O)C6N5C3=O)C(=O)N4C21	EC50	E138	-	10 µg/mL
CCN1C2=NC[C@H](Cc3ccccc3)N2C[C@H]1C1CCCCC1	EC50	ATCC 32045	-	38.6 µg/mL
O=C(O)c1cc(O)c(O)c(O)c1	MIC	ATCC 208821	broth dilution	100 µg/mL
CCCCCOc1ccc(-c2cc(-c3ccc(C(=O)N[C@H]4C[C@@H](O)[C@@H](O)NC(=O)[C@@H]5[C@@H](O)[C@@H](C)CN5C(=O)[C@H]([C@H](O)CC(N)=O)NC(=O)[C@H]([C@H](O)[C@@H](O)c5ccc(O)c(OS(=O)(=O)O)c5)NC(=O)[C@@H]5C[C@@H](O)CN5C(=O)[C@H]([C@@H](C)O)NC4=O)cc3)no2)cc1	MIC90	-	-	>8 µg/mL
O=c1c(O)c(-c2ccc(O)c(O)c2)oc2cc(O)cc(O)c12	MIC	ATCC 208821	broth dilution	100 µg/mL
CC(C)(C)C1CCC(CN2C3=NC[C@H](CC4CCCCC4)N3C[C@H]2C2CCCCC2)CC1	EC50	ATCC 32045	-	3.5 µg/mL
C[C@@H]1O[C@@H](Oc2c(-c3ccc(O)c(O)c3)oc3cc(O)cc(O)c3c2=O)[C@H](O)[C@H](O)[C@H]1O	MLC	ATCC 208821	broth dilution	200 µg/mL
CCN1C2=NC[C@H](CC3CCCCC3)N2C[C@@H]1Cc1ccccc1	EC50	ATCC 32045	-	45.2 µg/mL
CCCCCOc1ccc(-c2ccc(-c3ccc(C(=O)N[C@H]4C[C@@H](O)[C@@H](O)NC(=O)[C@@H]5[C@@H](O)[C@@H](C)CN5C(=O)[C@H]([C@H](C)O)NC(=O)[C@H]([C@H](O)[C@@H](O)c5ccc(O)cc5)NC(=O)[C@@H]5C[C@@H](O)CN5C(=O)[C@H]([C@H](C)O)NC4=O)cc3)cc2)cc1	MIC90	-	-	>8 µg/mL
CCCOc1ccc2nc(NC(=O)OC)[nH]c2c1	EC50	IU4	-	2.3 µg/mL
C[C@@H](c1ncncc1F)[C@](O)(Cn1cncn1)c1ccc(F)cc1F	MIC50	-	-	0.03–0.06 µg/mL
c1ccc2[nH]cnc2c1	EC50	ATCC 14116	-	<4 µg/mL
C1CCC(C[C@@H]2CN3C(=NC[C@H]3C3CCCCC3)N2CCC23CC4CC(CC(C4)C2)C3)CC1	EC50	ATCC 32045	-	9.9 µg/mL
COC(=O)[C@]12CCC(C)(C)C=C1C1CCC3[C@@]4(C)CCC(=O)C(C)(C)C4CC[C@@]3(C)[C@]1(C)CC2	MLC	ATCC 208821	broth dilution	200 µg/mL

The last 2 rows once more:

SMILES,read-out,strain or isolate,read by,value
C1CCC(C[C@@H]2CN3C(=NC[C@H]3C3CCCCC3)N2CCC23CC4CC(CC(C4)C2)C3)CC1,EC50,ATCC 32045,-,9.9 µg/mL
COC(=O)[C@]12CCC(C)(C)C=C1C1CCC3[C@@]4(C)CCC(=O)C(C)(C)C4CC[C@@]3(C)[C@]1(C)CC2,MLC,ATCC 208821,broth dilution,200 µg/mL